Assay results: ChEMBL document CHEMBL1671701, “Discovery of potent small-molecule inhibitors of multidrug-resistant Plasmodium falciparum using a novel miniaturized high-throughput luciferase-based assay” (Antimicrob Agents Chemother, 2010)
Some compounds may have been tested in ways that are not shown here.

Tested on: Plasmodium falciparum
Test: Antiplasmodial activity against Plasmodium falciparum 3D7 infected in RBCs by firefly luciferase reporter gene assay

For COc1cc(NC2CCN(CCc3ccccc3)CC2)cc(OC)c1, which IC50 is on record?
Its IC50 is 1200 nM.

Which IC50 does the source give for COc1cc(NC2CCN(Cc3ccccc3)CC2)cc(OC)c1 here?
The IC50 was 440 nM.

Which IC50 does the source give for COc1ccc(NC2CCN(CCc3ccccc3)CC2)cc1OC here?
Its IC50 is 1300 nM.

Clc1cccc(NC2CCN(CCc3ccccc3)CC2)c1 was tested. Which IC50 did it give?
The IC50 was 520 nM.

Which IC50 does the source give for Brc1cccc(NC2CCN(CCc3ccccc3)CC2)c1 here?
The IC50 was 490 nM.

For Fc1cccc(NC2CCN(CCc3ccccc3)CC2)c1, which IC50 is on record?
The IC50 was 920 nM.
